Pooled drug test results. Numbers come from NIAID ChemDB, via PubChem.

Shared fields: whole-cell or culture tests; species: Candida albicans

Rows are shuffled and stem from different studies. An empty or dashed field is not shown. Two numbers with a dash give a range or band. MIC50, MIC90 and the like: level of inhibition, or share of isolates inhibited.

structure | strain | method | measure | result
CCCCCCCCCCC[C@@H]1CC(=O)NCC(=O)N[C@@H](CCCCN)C(=O)N[C@@H]([C@@H](C)CC)C(=O)N1 | ATCC 24433 |  | MIC | 16 µg/mL
Cc1c(NC(=O)CSc2nnc(-c3ccco3)n2C)c(=O)n(-c2ccccc2)n1C | ATCC 10231 |  | MIC | 16 µg/mL
CCCCCCCCOc1ccc(N2CCN(c3ccc(C(=O)N[C@H]4CCCNC(=O)C5C[C@H](N)CN5C(=O)C(C(C)O)NC(=O)C(Cc5ccc(N)cc5)NC(=O)C5CCCN5C(=O)C(C(C)O)NC4=O)cc3)CC2)cc1 | ATCC 10231 |  | MIC | 0.39 µg/mL
CO/C=C1\[C@@H](Cn2cncn2)[C@H](COc2ccc(OC(F)(F)F)cc2)CC[C@@]1(C)CCOC | CY3003 |  | MIC | 0.05 µg/mL
Clc1ccc(C(c2ccc3ccccc3c2)n2ccnc2)s1 | 23 strains |  | MIC50 | 4 µg/mL
CCCCCCCCCCCCCCCC[n+]1c(C(C)O)c[nH]c1C |  |  | MIC | 32 µg/mL
Clc1ccc(C(c2ccc3ccccc3c2)n2ccnc2)cc1 | 23 strains |  | MIC90 | 8 µg/mL
C[N+](C)(C)CCOP(=O)([O-])OCCCCCCCCCCCC1C2CC3CC(C2)CC1C3 | Clinical isolate 44A | broth dilution | MFC | 8 µg/mL
CCCCCCCCC[C@@H]1CC(=O)NCC(=O)N[C@@H](CCC(=O)O)C(=O)N[C@@H](C(C)C)C(=O)N1 | ATCC 24433 |  | MIC | >64 µg/mL
NC(=O)N/N=C/c1ccsc1/C=N/NC(N)=O | ATCC 66396 | turbidity / absorbance | MIC80 | >250 µg/mL
CCCCCOc1ccc(-c2ccc(-c3ccc(C(=O)N[C@H]4CCCNC(=O)C5C[C@H](NC(=O)CC)CN5C(=O)C(C(C)O)NC(=O)C(CCc5ccc(O)cc5)NC(=O)C5C[C@@H](O)CN5C(=O)C(C(C)O)NC4=O)cc3)cc2)cc1 | ATCC CCH442 |  | MIC | 0.39 µg/mL
COc1ccc(C(c2cccc3ccccc23)n2ccnc2)cc1 | 23 strains |  | MIC90 | 128 µg/mL
C/C=C/[C@@H]1OC(=O)C=C[C@@H]1O |  |  | MIC | 300 µg/mL
COc1ccc(/C=c2\sc3n(c2=O)C(c2cc(OC)c(OC)c(OC)c2)C=C(c2ccc(OC)c(OC)c2)N=3)cc1 | DSM 70014 |  | MBC | 100 µg/mL
CCCCCC(=O)O[C@H]1[C@H](OC(=O)CCCCC)[C@H](OCC23C4C=C(C(C)C)C2(C(=O)O)C(C=O)(C4)[C@@H]2CC[C@@H](C)[C@H]23)O[C@H](C)[C@H]1OC | 2005 |  | MIC | 4 µg/mL
CCCCCCCCn1cc[n+](C)c1 |  |  | MIC | 500 µg/mL
c1ccc(-c2ccc(C(c3ccccc3)n3ccnc3)cc2)cc1 | B311 | visual reading | MIC | 8 µg/mL
NC(=S)NNC(=O)c1ccc(Cl)cc1 |  |  | MIC | >100 µg/mL
CCC/C=C/C=C/C=C/C(=O)OCC1O[C@@H](OC2C(CO)O[C@]3(OCc4cc(O)cc(O)c43)[C@H](O)[C@H]2OC(=O)/C=C/C=C/CC(O)/C=C/C=C/C=C/CCC)[C@H](O)[C@@H](O)[C@H]1O | A9540 |  | MIC | 0.2 µg/mL
COc1ccc(C2=NN(c3ccc([N+](=O)[O-])cc3)C(c3cc(OC)c(OC)c(OC)c3)C2)cc1OC | DSM 70014 |  | MIC | 100 µg/mL
NC(=O)N/N=C/c1ccsc1.NC(=O)N/N=C/c1ccsc1.[Br][Ni][Br] | ATCC 66396 | turbidity / absorbance | MIC80 | >250 µg/mL
Cc1ccc(-n2c(SCC(=O)Nc3c(C)n(C)n(-c4ccccc4)c3=O)nnc2-c2ccco2)cc1 | ATCC 10231 |  | MIC | 16 µg/mL
COc1ccc(C2=NN(C=O)C(c3cc(OC)c(OC)c(OC)c3)C2)cc1OC | DSM 70014 |  | MBC | 100 µg/mL
Clc1ccccc1C(c1ccccc1)(c1ccccc1)n1ccnc1 | B311 | visual reading | MIC | 2 µg/mL
CCCCCCCCC[C@@H]1CC(=O)NCC(=O)N[C@@H](CCCN=C(N)N)C(=O)N[C@@H](C(C)C)C(=O)N1 | ATCC 24433 |  | MIC | 2 µg/mL
COc1ccc(C(=O)/C=C/c2cc(OC)c(OC)c(OC)c2)cc1OC | DSM 70014 |  | MBC | 200 µg/mL
CCCCCCCCC[C@@H]1CC(=O)NCC(=O)N[C@@H](CCCCNCCC)C(=O)N[C@@H](C(C)C)C(=O)N1 | ATCC 24433 |  | MIC | 8 µg/mL
CCCCCOc1ccc(-c2ccc(-c3ccc(C(=O)N[C@H]4CCCNC(=O)C5C[C@H](NC(=O)OC)CN5C(=O)C(C(C)O)NC(=O)C(CCc5ccc(O)cc5)NC(=O)C5C[C@@H](O)CN5C(=O)C(C(C)O)NC4=O)cc3)cc2)cc1 | ATCC 10231 |  | MIC | 0.78 µg/mL
COc1ccc(C(=O)N/N=C(\N)SC)cc1 |  |  | MIC | >100 µg/mL
Cc1c(NC(=O)CSc2nnc(-c3ccco3)n2-c2ccccc2)c(=O)n(-c2ccccc2)n1C | ATCC 10231 |  | MIC | 16 µg/mL
CCCCCCCCCCCCCCCCn1cc[n+](C)c1 |  |  | MIC | 8 µg/mL
N/C(=N\NC(=O)c1ccc(F)cc1)SCc1cccc(Cl)c1 |  |  | MIC | >100 µg/mL
CC(O)C1NC(=O)C(CCc2ccc(O)cc2)NC(=O)C2C[C@@H](O)CN2C(=O)C(C(C)O)NC(=O)[C@@H](NC(=O)c2ccc(N(C)C)cc2)CCCNC(=O)C2C[C@H](N)CN2C1=O | ATCC 10231 |  | MIC | >100 µg/mL
CO/N=C/C(C)(C)C(O)(Cn1cncn1)c1ccc(Cl)cc1 | B311 | visual reading | MIC | 16 µg/mL
COc1ccc(C2=NN(c3ccccc3)C(c3cc(OC)c(OC)c(OC)c3)C2)cc1OC | DSM 70014 |  | MIC | 50 µg/mL
Cc1ccc(C(C)C)cc1O | ATCC 10231 |  | MIC | 0.16 µg/mL
Fc1ccc(C(c2ccc3ccccc3c2)n2ccnc2)cc1 | 23 strains |  | Mean MIC | 5.18 µg/mL
CCCCCCCCCCCCCCCCOP(=O)([O-])OCC[N+](C)(C)C | ATCC 10231 | broth dilution | MFC | 2 µg/mL
CCCCS/C(N)=N/NC(=O)c1ccccc1 |  |  | MIC | >100 µg/mL
CCCCn1c(SCC(=O)Nc2c(C)n(C)n(-c3ccccc3)c2=O)nnc1-c1ccco1 | ATCC 10231 |  | MIC | 16 µg/mL
C[C@@H]1[C@H](O)[C@@H](C)/C=C/C=C/C=C/C=C/C=C/C=C/C=C/[C@H](O[C@@H]2O[C@H](C)[C@@H](O)[C@H](N)[C@@H]2O)C[C@@H]2O[C@](O)(C[C@@H](O)C[C@@H](O)[C@H](O)CC[C@@H](O)C[C@@H](O)CC(=O)O[C@H]1C)C[C@H](O)[C@H]2C(=O)O | ATCC 10231 | broth dilution | MFC | 8 µg/mL
COc1ccc(/C=c2\sc3n(c2=O)C(c2cc(OC)c(OC)c(OC)c2)C=C(c2ccc(OC)c(OC)c2)N=3)cc1OC | DSM 70014 |  | MIC | 25 µg/mL
Fc1ccc(CCCCn2c3c(c4cc(F)ccc42)CNCC3)cc1 | ATCC 10231 |  | MIC | 3.12–6.25 µg/mL
COc1ccc(NC(=O)CSC2NC(c3ccc(OC)c(OC)c3)=CC(c3cc(OC)c(OC)c(OC)c3)N2)cc1 | DSM 70014 |  | MBC | 100 µg/mL
Clc1ccc(C(c2cccc3ccccc23)n2ccnc2)cc1 | 23 strains |  | MIC50 | 2 µg/mL
NC(=S)NNC(=O)c1ccc(F)cc1 |  |  | MIC | >100 µg/mL
c1ccc(C(c2ccc3ccccc3c2)n2ccnc2)cc1 | 23 strains |  | MIC50 | 4 µg/mL
COc1cc(C2C=C(c3ccc4c(c3)OCO4)NC(SCC(=O)Nc3ccc(Cl)cc3)N2)cc(OC)c1OC | DSM 70014 |  | MBC | 100 µg/mL
CCCCCOc1ccc(-c2ccc(-c3ccc(C(=O)N[C@H]4C[C@@H](O)[C@@H](O)NC(=O)[C@@H]5[C@@H](O)[C@@H](C)CN5C(=O)[C@H]([C@H](C)O)NC(=O)[C@H]([C@H](O)[C@@H](O)c5ccc(O)cc5)NC(=O)[C@@H]5C[C@@H](O)CN5C(=O)[C@H]([C@H](C)O)NC4=O)cc3)cc2)cc1 | Y7 |  | MIC | 0.08 µg/mL
Cc1c(NC(=O)C(C)Sc2nnc(-c3ccco3)n2C2CCCCC2)c(=O)n(-c2ccccc2)n1C | ATCC 10231 |  | MIC | 16 µg/mL
CCCCCOc1ccc(-c2ccc(-c3ccc(C(=O)N[C@H]4CCCNC(=O)C5C[C@H](NC(=O)c6cn[nH]c6)CN5C(=O)C(C(C)O)NC(=O)C(CCc5ccc(O)cc5)NC(=O)C5C[C@@H](O)CN5C(=O)C(C(C)O)NC4=O)cc3)cc2)cc1 | ATCC 10231 |  | MIC | 0.2 µg/mL
CCCCCCCCCCC[C@@H]1CC(=O)NCC(=O)N[C@@H](CCCCN)C(=O)N[C@@H](CC2CCCCC2)C(=O)N1 | ATCC 24433 |  | MIC | 64 µg/mL
Cc1c(NC(=O)CSc2nnc(-c3ccco3)n2C2CCCCC2)c(=O)n(-c2ccccc2)n1C | ATCC 10231 |  | MIC | 16 µg/mL

Again, the opening 7 rows:

CCCCCCCCCCC[C@@H]1CC(=O)NCC(=O)N[C@@H](CCCCN)C(=O)N[C@@H]([C@@H](C)CC)C(=O)N1 ; strain: ATCC 24433 ; measure: MIC ; result: 16 µg/mL
Cc1c(NC(=O)CSc2nnc(-c3ccco3)n2C)c(=O)n(-c2ccccc2)n1C ; strain: ATCC 10231 ; measure: MIC ; result: 16 µg/mL
CCCCCCCCOc1ccc(N2CCN(c3ccc(C(=O)N[C@H]4CCCNC(=O)C5C[C@H](N)CN5C(=O)C(C(C)O)NC(=O)C(Cc5ccc(N)cc5)NC(=O)C5CCCN5C(=O)C(C(C)O)NC4=O)cc3)CC2)cc1 ; strain: ATCC 10231 ; measure: MIC ; result: 0.39 µg/mL
CO/C=C1\[C@@H](Cn2cncn2)[C@H](COc2ccc(OC(F)(F)F)cc2)CC[C@@]1(C)CCOC ; strain: CY3003 ; measure: MIC ; result: 0.05 µg/mL
Clc1ccc(C(c2ccc3ccccc3c2)n2ccnc2)s1 ; strain: 23 strains ; measure: MIC50 ; result: 4 µg/mL
CCCCCCCCCCCCCCCC[n+]1c(C(C)O)c[nH]c1C ; measure: MIC ; result: 32 µg/mL
Clc1ccc(C(c2ccc3ccccc3c2)n2ccnc2)cc1 ; strain: 23 strains ; measure: MIC90 ; result: 8 µg/mL